# Assay results: PubChem BioAssay AID2314 (National Center for Advancing Translational Sciences (NCATS), 2010)
# Only a part is listed here, and it is no random draw. Active and inactive are the calls of the source. Cut-off read from the data, not from the text of the source: active = max response mostly above about 13% (no sharp cut-off); inactive = mostly below about 14%.
# Experiment: Cycloheximide Counterscreen for Small Molecule Inhibitors of Shiga Toxin; note: read at 38.3 µM for the half of the compounds with a filed dose; 0% is about no effect
# Conditions: cell reporter, cycloheximide protein synthesis inhibition counterscreen; stronger effect = higher value
row,Compound,max response
1,COc1ccccc1OP(C)(=O)Nc1ccc(C)c(C)c1 (configuration not stated),inactive: -2.06%
2,COc1ccc(OP(C)(=O)Nc2ccccc2Br)cc1 (configuration not stated),inactive: -2.35%
3,Cc1cc(C)cc(OP(C)(=O)Nc2cccc(C(F)(F)F)c2)c1 (configuration not stated),inactive: -7.29%
4,CCN(N=Nc1nonc1N)c1nonc1N,inactive: -5.98%
5,CP(=O)(Nc1ccc(Cl)cc1Cl)Oc1ccccc1 (configuration not stated),inactive: 5.24%
6,CP(=O)(OCCOc1ccccc1)OCCOc1ccccc1,inactive: 0.38%
7,O=[N+]([O-])c1cc([N+](=O)[O-])c(CCN2CCOCC2)c([N+](=O)[O-])c1,inactive: -7.87%
8,COc1ccc(OP(C)(=O)Nc2ccccn2)cc1 (configuration not stated),inactive: -3.28%
9,CN(C)CCOC(=O)C(O)(c1ccccc1)C1CCCC1 (configuration not stated),inactive: 0.652%
10,COc1ccccc1OP(C)(=O)Nc1ccc(Br)cc1 (configuration not stated),inactive: 8.27%
11,COc1ccccc1OP(C)(=O)Nc1ccc(C)cc1C (configuration not stated),inactive: -2.26%
12,CP(=O)(Nc1ccccn1)Oc1ccccc1 (configuration not stated),inactive: -1.11%
13,CCc1ccc(OP(C)(=O)O)cc1,inactive: -1.64%
14,Nc1cc(N)c2nonc2c1[N+](=O)[O-],inactive: -1.3%
15,Cc1c(NP(C)(=O)Oc2ccc(C(C)C)cc2)c(=O)n(-c2ccccc2)n1C (configuration not stated),inactive: -1.57%
16,O=[N+]([O-])c1cc([N+](=O)[O-])c(Nc2ccccn2)c([N+](=O)[O-])c1,inactive: 4.83%
17,O=C(OCCCN1CCCC1)C(O)(c1ccccc1)C1CCCCC1 (configuration not stated),inactive: -2.16%
18,COc1ccccc1OP(C)(=O)Nc1c(C)n(C)n(-c2ccccc2)c1=O (configuration not stated),inactive: -1.11%
19,CCc1ccc(OP(C)(=O)Nc2cccnc2)cc1 (configuration not stated),inactive: -5.07%
20,O=[N+]([O-])c1cc([N+](=O)[O-])c(CCNc2ccccc2)c([N+](=O)[O-])c1,inactive: 6.64%
21,CCc1nc2c(n1)c1c(non1O)c1c2no[n+]1[O-],inactive: -1.43%
22,CP(=O)(Oc1ccccc1)N1CCOC1=O (configuration not stated),inactive: -0.177%
23,COc1ccc(OP(C)(=O)Nc2ccc(Br)cc2)cc1 (configuration not stated),inactive: -3.45%
24,CCN(CC)CC(O)COC(=O)C(O)(c1ccccc1)C1CCCCC1 (configuration not stated),inactive: 1.46%
25,CC(C)=N/N=C(\N)N[N+](=O)[O-],inactive: 3.28%

row,Compound,max response
1,CN(C)C(=O)c1c([N+](=O)[O-])cc([N+](=O)[O-])cc1[N+](=O)[O-],inactive: 6.81%
2,C[N+]1=C2C=CC=CC=C2SC12C([N+](=O)[O-])=CC([N+](=O)[O-])=C[C-]2[N+](=O)[O-] (configuration not stated),active: 67.5%
3,COc1ccccc1OP(C)(=O)Nc1ccccc1Br (configuration not stated),inactive: -5.54%
4,CC(C)(C)c1ccc(OP(C)(=O)O)cc1,inactive: 0.382%
5,CP(=O)(Nc1ccc(Cl)cc1)Oc1ccc(F)cc1 (configuration not stated),inactive: -2.82%
6,CCOC(=O)c1ccc(NP(C)(=O)Oc2ccc(Cl)cc2)cc1 (configuration not stated),inactive: 1.45%
7,CP(=O)(OC12CC3CC(CC(C3)C1)C2)OC12CC3CC(CC(C3)C1)C2,inactive: -2.65%
8,O=[N+]([O-])c1ncn(CCn2ncnc2[N+](=O)[O-])n1,inactive: -1.89%
9,CN(C)CCOC(=O)C(O)(c1ccccc1)C1CCCCC1 (configuration not stated),inactive: 1.27%
10,COc1ccc(NP(C)(=O)Oc2ccccc2OC)cc1 (configuration not stated),inactive: -3.91%
11,COc1ccc(OP(C)(=O)Nc2cccc(Br)c2)cc1 (configuration not stated),inactive: -5.46%
12,C(Cc1nn[nH]n1)Cc1nn[nH]n1,inactive: 2.44%
13,O=[N+]([O-])c1ccc(OP2(=O)COCCO2)cc1 (configuration not stated),inactive: -3.29%
14,O=[N+]([O-])c1ncn(CCn2cnc([N+](=O)[O-])n2)n1,inactive: 1.27%
15,Cc1cc(-c2cccc3ccccc23)c(C)cn1.O=[N+]([O-])c1cc([N+](=O)[O-])c(O)c([N+](=O)[O-])c1,inactive: -1.05%
16,CCOP(C)(=S)SCC(=O)NC(C)(CC)C(=O)O (configuration not stated),inactive: 0.253%
17,c1nnnn1CCn1cnnn1,inactive: -4.97%
18,CP(=O)(Nc1ccc(SC(F)(F)F)cc1)Oc1ccc(F)cc1 (configuration not stated),inactive: -2.38%
19,Cc1ccccc1NP(C)(=O)Nc1ccccc1C,inactive: -0.391%
20,CP(=O)(Nc1ccc2c(c1)OCCO2)Oc1ccccc1 (configuration not stated),inactive: 20%
21,CP(=O)(Nc1ccccc1F)Oc1ccccc1 (configuration not stated),inactive: -2.47%
22,CC(C)c1ccc(OP(C)(=O)Nc2ccc(SC(F)(F)F)cc2)cc1 (configuration not stated),inactive: -2.02%
23,O=C(OCCN1CCN(CCOCc2ccccc2)CC1)C(O)(c1ccccc1)c1ccccc1,inactive: 0.636%
24,CCOC(=O)c1ccc(NP(C)(=O)Oc2ccc(F)cc2)cc1 (configuration not stated),inactive: -2.75%
25,COc1ccc(OP(C)(=O)Nc2ccc(SC(F)(F)F)cc2)cc1 (configuration not stated),inactive: -0.794%

row,Compound,max response
1,CCNC(=S)/N=C(\N)N[N+](=O)[O-],inactive: 1.36%
2,CP(=O)(Nc1ccccc1)Oc1ccc(F)cc1 (configuration not stated),inactive: -1.84%
3,O=c1c2cc([N+](=O)[O-])ccc2[nH]c2c([N+](=O)[O-])cc([N+](=O)[O-])cc12,inactive: -1.09%
4,CCCCCOc1ccc(NP(C)(=O)Oc2ccc(Cl)cc2Cl)cc1 (configuration not stated),inactive: 4.23%
5,CCN(CC)CCCOC(=O)C(O)(c1ccccc1)C1CCCCC1 (configuration not stated),inactive: -3.84%
6,CS(=O)(=O)c1cc([N+](=O)[O-])c2no[n+]([O-])c2c1,inactive: 4.61%
7,CC1=NCCc2c1[nH]c1ccccc21.O=[N+]([O-])c1cc([N+](=O)[O-])c(O)c([N+](=O)[O-])c1,inactive: 10.3%
8,O=[N+]([O-])OCC(CO[N+](=O)[O-])(CO[N+](=O)[O-])CO[N+](=O)[O-],inactive: 7.34%
9,CCOC(=O)c1ccc(NP(C)(=O)Oc2cc(C)cc(C)c2)cc1 (configuration not stated),inactive: -2.76%
10,Cc1cc(C)cc(OP(C)(=O)Nc2ccc(C)cc2C)c1 (configuration not stated),inactive: 5.75%
11,COc1ccccc1OP(C)(=O)Nc1cccc(Br)c1 (configuration not stated),inactive: -0.472%
12,Cc1ccc(C)c(NP(C)(=O)Oc2ccccc2)c1 (configuration not stated),inactive: -1.21%
13,Cc1ccc(NCCc2c([N+](=O)[O-])cc([N+](=O)[O-])cc2[N+](=O)[O-])cc1,inactive: 14%
14,Cc1cc(C)cc(OP(C)(=O)Nc2ccccn2)c1 (configuration not stated),inactive: -4.18%
15,CP(=O)(Nc1cccc(Br)c1)Oc1ccccc1 (configuration not stated),inactive: -6.37%
16,CC(C)N(CCCl)C(C)C,inactive: -2.85%
17,O=[N+]([O-])c1cc([N+](=O)[O-])c(-n2nnc3ccccc32)c([N+](=O)[O-])c1,inactive: -2.27%
18,Cc1nc2ccc3ccccc3c2s1.O=[N+]([O-])c1cc([N+](=O)[O-])c(O)c([N+](=O)[O-])c1,inactive: 14.9%
19,O=[N+]([O-])c1cc([N+](=O)[O-])c(Nc2nnnn2CCO)c([N+](=O)[O-])c1,inactive: -3.82%
20,CCCOc1ccc(NP(C)(=O)Oc2ccc(Cl)cc2)cc1 (configuration not stated),inactive: -1.91%
21,CP(=O)(Nc1ccc(SC(F)(F)F)cc1)Oc1ccccc1 (configuration not stated),inactive: -0.981%
22,CN1CCCCC1COC(=O)C1(O)c2ccccc2CCc2ccccc21 (configuration not stated),inactive: -4.68%
23,COc1ccccc1OP(C)(=O)Nc1c(C)cccc1C (configuration not stated),inactive: 3.59%
24,CP(=O)(Nc1ccccc1Br)Oc1ccccc1 (configuration not stated),inactive: -0.39%
25,COc1ccccc1OP(C)(=O)Nc1ccccc1 (configuration not stated),inactive: 4.39%

row,Compound,max response
1,CP(=S)(Nn1cnnc1)Oc1ccccc1 (configuration not stated),inactive: -1.98%
2,Cc1cc(C)cc(OP(C)(=O)Nc2ccc(SC(F)(F)F)cc2)c1 (configuration not stated),inactive: -2.59%
3,CP(=O)(NC(=O)Nc1ccccc1)Oc1ccccc1 (configuration not stated),inactive: -3.85%
4,CCc1ccc(OP(C)(=O)N2CCN(c3ccc([N+](=O)[O-])cc3)CC2)cc1 (configuration not stated),inactive: 10.8%
5,CP(=O)(Oc1ccccc1)OC(c1ccccc1)C(F)(F)F (configuration not stated),inactive: -1.02%
6,CP(=O)(Nc1ccc(SC(F)(F)F)cc1)Oc1ccc(Cl)cc1 (configuration not stated),inactive: -1.69%
7,Cc1cccc(C)c1OP(C)(=O)Nc1ccc(SC(F)(F)F)cc1 (configuration not stated),inactive: -6.15%
8,CP(=O)(Nc1ccccn1)Oc1ccc(Cl)cc1 (configuration not stated),inactive: -4.35%
9,CCOC(=O)c1ccc(NP(C)(=O)Oc2ccc(OC)cc2)cc1 (configuration not stated),inactive: -4.06%
10,CCOP(C)(=S)SCC(=O)NC(C)C(=O)O (configuration not stated),inactive: -0.429%
11,CCN(CC)CCCOC(=O)C(O)(c1ccccc1)c1ccccc1,inactive: 1.82%
12,O=[N+]([O-])c1ccc2c(c1)C=Nc1ccccc1O2,inactive: -4.36%
13,Cc1cccc(C)c1OP(C)(N)=O (configuration not stated),inactive: -1.99%
14,O=C(O)C(O)(c1ccccc1)c1ccccc1,inactive: -5.28%
15,CC(C)(C)c1ccc(OP(C)(=O)Nc2ccc(SC(F)(F)F)cc2)cc1 (configuration not stated),inactive: -0.368%
16,O=C(O)C1(O)c2ccccc2-c2ccccc21,inactive: 6.24%
17,Cc1cc(C)cc(OP(C)(N)=O)c1 (configuration not stated),inactive: -6.94%
18,COc1ccc(OP(C)(=O)Nc2cccc(F)c2)cc1 (configuration not stated),inactive: -1.59%
19,COc1ccccc1OP(C)(=O)Nc1cc(Cl)ccc1C (configuration not stated),inactive: 4.11%
20,Cc1ccc(NP(C)(=O)Oc2ccccc2)c(C)c1 (configuration not stated),inactive: 1.46%
21,COc1ccccc1OP(C)(=O)Nc1ccc(C)cc1 (configuration not stated),inactive: -2.16%
22,CCOC(=O)c1ccc(NP(C)(=O)Oc2ccccc2)cc1 (configuration not stated),inactive: -0.758%
